This note sets out measurements from paper PMC5501846, “X-Ray snapshots of a pyridoxal enzyme: a catalytic mechanism involving concerted [1,5]-hydrogen sigmatropy in methionine γ-lyase” (Scientific Reports, 2017).

Series [1] relates to COCC[C@H](N)C(=O)O. In words: purified protein. As to conditions: 100 mM phosphate pH 7.0, 1 mM DTT, 20 μM PLP, 37 °C.
Series [2] relates to C[Se]CC[C@H](N)C(=O)O. In words: purified protein. As to conditions: 100 mM phosphate pH 7.0, 1 mM DTT, 20 μM PLP, 37 °C.

As for EhMGL1 (Entamoeba histolytica; Y108F), in series [1], the Km (commonly the substrate concentration at which the rate is half of its maximum) stood at 4600 ± 370 µM; the kcat (as a rule, the maximal rate divided by the concentration of active sites) stood at 0.1 s⁻¹; the kcat/Km (usually the second-order rate constant that governs catalysis at low substrate concentration) was found to be 20 M⁻¹ s⁻¹. For the same substance, in series [2], the Km amounted to 740 ± 100 µM, the kcat came to 0.06 s⁻¹ and the kcat/Km was determined as 80 M⁻¹ s⁻¹.
